Data source: PubChem BioAssay AID624099 (ICCB-Longwood, 2012)

Test: 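Human genes that papillomavirus E2 requires to repress the HPV18 LCR promoter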 (primary screen)
System: human C33A cervical carcinoma cells (HPV-negative) stably expressing BPV1 E2 and an HPV18 LCR luciferase reporter
Reagent: siRNA pool against human genes, 40 nM
Timing: 72 h
Read-out: 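Per-well luciferase luminescence, z-scored on each plate against the plate mean and SD with control wells left out, then averaged across three replicate plates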
Direction: mean z-score and z-score: higher = stronger reporter signal, weaker E2 silencing
Rule for the call: 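Mean z ≥ 2 together with z ≥ 2 in two or more of the three replicates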
Here is a random part of about 21,000 deposited reagents. 497 of them (2.4%) count as active. 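Higher z means weaker E2 silencing; only reporter increases were scored, and knock-downs that hurt cell survival may mask genuine repressor factors.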

For LOC390569 (retired record), what was measured?
mean z-score: 3.46; z-score, replicate A: 3.27; z-score, replicate B: 2.66; z-score, replicate C: 4.46; activity call: active

For SUN1 (Sad1 and UNC84 domain containing 1), what was measured?
mean z-score: -0.76; z-score, replicate A: -0.78; z-score, replicate B: -0.81; z-score, replicate C: -0.67; activity call: inactive

What is on record for RYR1 (ryanodine receptor 1)?
mean z-score: 1.08; z-score, replicate A: 0.83; z-score, replicate B: 1.1; z-score, replicate C: 1.31; activity call: inactive

What is on record for IGSF11 (immunoglobulin superfamily member 11)?
mean z-score: -0.29; z-score, replicate A: -0.59; z-score, replicate B: -0.17; z-score, replicate C: -0.12; activity call: inactive

Which result is listed for LINGO1 (leucine rich repeat and Ig domain containing 1)?
mean z-score: 0.99; z-score, replicate A: 0.66; z-score, replicate B: 1.02; z-score, replicate C: 1.28; activity call: inactive

For LOC401005 (retired record), what does the deposit list?
mean z-score: -0.03; z-score, replicate A: 0.05; z-score, replicate B: 0.09; z-score, replicate C: -0.25; activity call: inactive

With IL22 (interleukin 22), what does the deposit list?
mean z-score: -0.94; z-score, replicate A: -0.97; z-score, replicate B: -0.69; z-score, replicate C: -1.15; activity call: inactive

What did the screen give for KCNA4 (potassium voltage-gated channel subfamily A member 4)?
mean z-score: -1.17; z-score, replicate A: -1; z-score, replicate B: -1.3; z-score, replicate C: -1.22; activity call: inactive

Which result is listed for BDKRB2 (bradykinin receptor B2)?
mean z-score: -0.17; z-score, replicate A: 0; z-score, replicate B: -0.1; z-score, replicate C: -0.4; activity call: inactive

What is on record for FREM2 (FRAS1 related extracellular matrix 2)?
mean z-score: 0.47; z-score, replicate A: 0.42; z-score, replicate B: 0.7; z-score, replicate C: 0.29; activity call: inactive

For GDF5 (growth differentiation factor 5), how do the results read?
mean z-score: 0.42; z-score, replicate A: 0.37; z-score, replicate B: 0.09; z-score, replicate C: 0.79; activity call: inactive

For ABHD14A (abhydrolase domain containing 14A), what was measured?
mean z-score: -0.91; z-score, replicate A: -1.03; z-score, replicate B: -0.86; z-score, replicate C: -0.84; activity call: inactive

For RFESD (Rieske Fe-S domain containing), how do the results read?
mean z-score: -1.21; z-score, replicate A: -1.14; z-score, replicate B: -1.24; z-score, replicate C: -1.24; activity call: inactive

How did the screen score IFITM5 (interferon induced transmembrane protein 5)?
mean z-score: 0.44; z-score, replicate A: 0.69; z-score, replicate B: -0.1; z-score, replicate C: 0.74; activity call: inactive

With TAFAZZIN (tafazzin, phospholipid-lysophospholipid transacylase), how do the results read?
mean z-score: 0.12; z-score, replicate A: -0.18; z-score, replicate B: -0.17; z-score, replicate C: 0.71; activity call: inactive

What did the screen give for OR5P2 (olfactory receptor family 5 subfamily P member 2)?
mean z-score: -0.83; z-score, replicate A: -0.96; z-score, replicate B: -0.72; z-score, replicate C: -0.8; activity call: inactive

For SPATA9 (spermatogenesis associated 9), what was measured?
mean z-score: -2.42; z-score, replicate A: -2.44; z-score, replicate B: -2.65; z-score, replicate C: -2.16; activity call: inactive

What is on record for ZNF845 (zinc finger protein 845)?
mean z-score: -0.13; z-score, replicate A: 0.25; z-score, replicate B: -0.48; z-score, replicate C: -0.15; activity call: inactive

For CHMP1A (charged multivesicular body protein 1A), what does the deposit list?
mean z-score: -1.01; z-score, replicate A: -0.92; z-score, replicate B: -1.03; z-score, replicate C: -1.08; activity call: inactive

With GKN2 (gastrokine 2), how do the results read?
mean z-score: -1.15; z-score, replicate A: -0.92; z-score, replicate B: -1.34; z-score, replicate C: -1.18; activity call: inactive

How did the screen score DCAF13 (DDB1 and CUL4 associated factor 13)?
mean z-score: -0.34; z-score, replicate A: -0.24; z-score, replicate B: -0.32; z-score, replicate C: -0.46; activity call: inactive

Entries listed so far with an active call:
LOC390569 (retired record): mean z-score = 3.46; z-score, replicate A = 3.27; z-score, replicate B = 2.66; z-score, replicate C = 4.46; activity call = active
